Data as given in article PMC7661526, “Antibiofilm effects of N,O-acetals derived from 2-amino-1,4-naphthoquinone are associated with downregulation of important global virulence regulators in methicillin-resistant Staphylococcus aureus” (Scientific Reports, 2020).

Test system: Vero cell line
Assay: Cytotoxicity assay (MTT)
Conditions: SI = CC50/MIC; Vero cells
Method: Plates were incubated for 1 h, the supernatant again removed, and 200 µL dimethyl sulfoxide (DMSO) were added to each well to dissolve the formazan crystals for 10 min. Absorbance was measured at 570 nm using an ELISA reader (Thermo Plate, TP-READER, Thermo Fisher Scientific). […] The selectivity index (SI) was calculated as follows: SI (µg/mL) = CC50/MIC[17]. Three independent experiments were performed in triplicate. Controls were performed using 2% (v/v) DMSO only.

Compared with `C#CCOCNC1=CC(=O)c2ccccc2C1=O` [7c, 2-(propynyloxymethyl)-amino-1,4-naphthoquinone], `CCOCNC1=CC(=O)c2ccccc2C1=O` [7b, 2-(ethoxymethyl)-amino-1,4-naphthoquinone] is higher in SI: 0.31 for the first, 1.72 for the second.

Going from `NC1=CC(=O)c2ccccc2C1=O` [6a, 2-amino-1,4-naphthoquinone] to `COCNC1=CC(=O)c2ccccc2C1=O` [7a, 2-(methoxymethyl)-amino-1,4-naphthoquinone], the SI falls from 0.76 to 0.61.
